{"source": "paper PMC8545924", "binders": {"B1": {"name": "Ab1245 Fab (Fab, V domains shown)", "VH": "QVQLQQSGPGLVKPSETLSLTCTVSGGSISESYYWKWIRQPPGKGLEWVGRIYGSGVSTSYNPSLESRVTISKDTSKNHFSLKLTSVTAADTAVYYCARSYVRAETLMFASLGGPYNRFDVWGAGVLVTVSS", "VL": "QSALTQPSSASASLGASVTLTCTLSSGYSNSAVDWHQQRPGKGPQFVMRVGTGGIVGSKGDGIPDRFSGSGSGLNRYLIIKNIQEEDESDYHCGADHGTGSAFVYVFGGGTKLTVL"}}, "molecular_target": "BG505_(N611A) SOSIP Env trimer (HIV-1 (clade A, strain BG505))", "test": "mass photometry"}
{"binder": "B1", "values": [{"measurement": "stoichiometry N (Fabs per trimer)", "result": 0}]}
